Source: US10167295B2 (priority 2013, dated 2019)
pKi: −log10 of the molar value. Like-named read-outs stand apart in the source and are kept apart here.

What was measured:
[1] = molecular target: T1, MOR (Homo sapiens, UniProt P35372); test: Primary binding (PDSP); details: for MOR mean % inhibition: 10 μM, N = 4 determinations, negative = stimulation of binding; for MOR: Table 7, rounded values of Table 4
[2] = molecular target: T1, MOR; test: Radioligand competition binding, Ki (PDSP); details: read-out: MOR Ki

| SMILES | MOR mean % inhibition [1] [%] | MOR [1] | pKi ([2]; Cheng-Prusoff from best fit IC50) | pKi ([2]; Table 7, values of Table 5) |
| --- | --- | --- | --- | --- |
| CN(C(=O)Cc1cccc2occc12)[C@H]1CCCC[C@@H]1N1CCCC1 | 62 | 62 | < 5.00 | < 5.00 |
| O=C(/C=C/c1ccoc1)N1CCCC[C@H]1CN1CCCC1 | 21 | 21 |  |  |
| C1CCCC(CN2CCCC[C@H]2CN2CCCC2)CCC1 | 11.2 | 11 |  |  |
| O=C(Cc1ccccc1)N1CCCC[C@H]1CN1CCCC1 | 13.9 | 14 |  |  |
| CN(C(=O)CCN1CCC2(CCc3ccccc32)CC1)[C@H]1CCCC[C@@H]1N1CCCC1 | 47.8 | 48 |  |  |
| O=C(CCN1CCC2(CCc3ccccc32)CC1)N[C@H]1CCCC[C@@H]1N1CCCC1 | 36 | 36 |  |  |
| CN1CC(C(=O)N2CCCC[C@H]2CN2CCCC2)CC1=O (stereo partly drawn) | 7.7 | 8 |  |  |
| O=C(Cc1cccc2occc12)N1CCCC[C@H]1CN1CCCC1 | 23.6 | 24 |  |  |
| O=C(CCN1CCc2ccccc21)N1CCCC[C@H]1CN1CCCC1 | 11.1 | 11 |  |  |
| O=C(Cc1ccc2c(c1)OCO2)N1CCCC[C@H]1CN1CCCC1 | 23.3 | 23 |  |  |
| O=C(c1ccccc1)N1CCCC[C@H]1CN1CCCC1 | 20.6 | 21 |  |  |
| O=C(NCCCN1CCCC[C@H]1CN1CCCC1)C1CCCN1Cc1ccccc1 (stereo partly drawn) | 30.2 | 30 |  |  |
| CN1CC(C(=O)N[C@H]2CCCC[C@@H]2N2CCCC2)CC1=O (stereo partly drawn) | 3.6 | 4 |  |  |
| O=C(C1CCCN1Cc1ccccc1)N1CCCC[C@H]1CN1CCCC1 (stereo partly drawn) | 8.4 | 8 |  |  |
| CCn1c(=O)n([C@@H]2CCCC[C@H]2N2CCCC2)c2ccccc21 | 4.7 | 5 |  |  |
| CN1CC(C(=O)N(C)[C@H]2CCCC[C@@H]2N2CCCC2)CC1=O (stereo partly drawn) | 18.7 | 19 |  |  |
| CCn1c(=O)n([C@H]2CCCC[C@@H]2N2CCCC2)c2ccccc21 | 20 | 20 |  |  |
